Data as given in ChEMBL document CHEMBL4837229 (Eur J Med Chem, 2021).

How the values were obtained:
[1] = target: Neuraminidase (Influenza A virus) (UniProt B4URF0); experiment: Potency index, ratio of oseltamivir carboxylate IC50 to test compound IC50 for inhibition of Influenza A virus (A/Anhui/1/2005(H5N1) Neuraminidase using MUNANA as substrate preincubated for 5 to 15 mins followed by substrate addition and measured after 30 mins by fluorescence spectrophotometric …
[2] = system: Neuraminidase (Influenza A virus (strain A/USSR/90/1977 H1N1)), P03469 [H274Y]; experiment: Potency index, ratio of oseltamivir carboxylate IC50 to test compound IC50 for inhibition of Influenza A virus (A/California/04/2009 (H1N1)) Neuraminidase H274Y mutant using MUNANA as substrate preincubated for 5 to 15 mins followed by substrate addition and measured after 30 mins by fluorescence …

SMILES | Ratio IC50 [1] | Ratio IC50 [2]
CCC(CC)O[C@@H]1C=C(C(=O)O)C[C@H](NC(N)=O)[C@H]1NC(C)=O | 0.29 | 6.1
CCC(CC)O[C@@H]1C=C(C(=O)O)C[C@H](NC(=O)NN)[C@H]1NC(C)=O | 4.12 | 6.23
CCCNNC(=O)N[C@H]1CC(C(=O)O)=C[C@@H](OC(CC)CC)[C@@H]1NC(C)=O | – | 2.16
CCCCNNC(=O)N[C@H]1CC(C(=O)O)=C[C@@H](OC(CC)CC)[C@@H]1NC(C)=O | 0.15 | 5.63
